A mixed list of measured activities; the numbers were collected in NIAID ChemDB.

Shared fields: toxicity to cultured cells; cell line: MT-4; read-out: CC50

CCn is the concentration with n% toxicity to the cells. Lines come from different laboratories, so protocols vary.

structure | value
C=C1CN(S(=O)(=O)c2ccc(C)cc2)CCCN(CCC)CCCN(S(=O)(=O)c2ccc(C)cc2)C1 | 36.4 µM
CCN1C[C@H](C)N2C(=C(O)C3C(=O)N4Cc5ccc(F)cc5C(=O)NCCCCCCN(C)C(=N4)C32)C1=O | 0.8 µM
CC(C)c1c(Cc2ccccc2)n(CCCCCC(N)=O)c(=O)[nH]c1=O | >100 µM
O=C(O)c1cc(O)c(O)c(Oc2c(C(=O)OC3C(OC(=O)c4cc(O)c(O)c(O)c4)OC4COC(=O)c5cc(O)c(O)c(O)c5-c5c(cc(O)c(O)c5O)C(=O)OC4C3OC(=O)c3cc(O)c(O)c(O)c3)cc(O)c(O)c2O)c1 | 28.2 µg/mL
C=C1CN(S(=O)(=O)c2ccc(C)cc2)CCCN(CC2CC2)CCCN(S(=O)(=O)c2ccc(C)cc2)C1 | 36.1 µM
CC(C)(C)OC(=O)N(CCCCC(=O)N(CC(=O)CN(Cc1ccccc1)C(=O)CCCCN(Cc1ccccc1)C(=O)OC(C)(C)C)Cc1ccccc1)Cc1ccccc1 | >50 µM
O=CC(OC(=O)c1cc(O)c(O)c(O)c1)C(OC(=O)c1cc(O)c(O)c(O)c1)C1OC(=O)c2cc(Oc3c(C(=O)OC4OC5COC(=O)c6cc(O)c(O)c(O)c6-c6c(cc(O)c(O)c6O)C(=O)OC5C(OC(=O)c5cc(O)c(O)c(O)c5)C4OC(=O)c4cc(O)c(O)c(O)c4)cc(O)c(O)c3O)c(O)c(O)c2-c2c(cc(O)c(O)c2O)C(=O)OCC1O | 30.2 µg/mL
Cc1cn([C@H]2C=C[C@@H](CO)O2)c(=O)[nH]c1=O | 20 µM
CC(C)(C)[Si](C)(C)OC[C@H]1O[C@@H](n2ccc(=O)[nH]c2=O)[C@H](O[Si](C)(C)C(C)(C)C)C12OS(=O)(=O)C=C2N | 3.1 µg/mL
CC(C)(C)OC(=O)NCCC(=O)N(CC(=O)CN(Cc1ccccc1)C(=O)CCNC(=O)OC(C)(C)C)Cc1ccccc1 | 10 µM
C=C1CN(S(=O)(=O)c2ccc(C)cc2)CCCN(Cc2ccccn2)CCCN(S(=O)(=O)c2ccc(C)cc2)C1 | >75 µM
O=C[C@H](OC(=O)c1cc(O)c(O)c(O)c1)[C@@H](OC(=O)c1cc(O)c(O)c(O)c1)[C@@H]1OC(=O)c2cc(O)c(O)c(O)c2-c2c(cc(O)c(O)c2O)C(=O)OC[C@H]1O | 22.9 µg/mL
C=C1CN(S(=O)(=O)c2ccc(Br)cc2)CCCN(C(=O)OCC)CCCN(S(=O)(=O)c2ccc(Br)cc2)C1 | >75 µM
N#C/C(=C\c1ccc2c(c1)OCO2)n1nc2ccccc2n1 | >100 µM
CCOCn1c(Cc2ccccc2)c(C(C)C)c(=O)[nH]c1=O | 53 µM
C[C@H](CCC=C(c1cc(Cl)c(O)c(C(=O)O)c1)c1cc(Cl)c(O)c(C(=O)O)c1)[C@H]1CCC2C3C(C[C@H](O)[C@@]21C)[C@@]1(C)CC[C@@H](O)C[C@H]1C[C@H]3O | >125 µM
C=C1CN(S(=O)(=O)c2ccc(C)cc2)CCCN(CC2CC=CCC2)CCCN(S(=O)(=O)c2ccc(C)cc2)C1 | 32.7 µM
CCCOC(=O)c1cc(O)c(O)c(O)c1 | 11.4 µg/mL
C=C1CN(S(=O)(=O)c2ccc(CBr)cc2)CCCN(Cc2ccccc2)CCCN(S(=O)(=O)c2ccc(CBr)cc2)C1 | >75 µM
C[C@H](CCCC(C)(C)O)[C@H]1CC[C@H]2[C@@H]3[C@@H](O)C=C4C[C@@H](O)CC[C@]4(C)[C@H]3CC[C@]12C | >25 µM
C=C1CN(S(=O)(=O)c2ccc(C)cc2)CCCN(C(C)=O)CCCN(S(=O)(=O)c2ccc(C)cc2)C1 | >75 µM
N#C/C(=C\c1ccc(Br)cc1)n1nc2ccccc2n1 | 3 µM
CC(C)(C)OC(=O)N(CCCCC(=O)N(CC(=O)CN(Cc1ccccc1)C(=O)CCCCN(CCCN(Cc1ccccc1)C(=O)OC(C)(C)C)C(=O)OC(C)(C)C)Cc1ccccc1)CCCN(Cc1ccccc1)C(=O)OC(C)(C)C | 50 µM
N#C/C(=C\c1ccc(F)cc1)n1nc2ccccc2n1 | >100 µM
O=CC1OC(=O)c2cc(O)c(O)c(O)c2Oc2cc3c(c(O)c2O)-c2c(cc(O)c(O)c2O)C(=O)OC2C(COC3=O)OC(OC(=O)c3cc(O)c(O)c(O)c3)C(OC(=O)c3cc(O)c(O)c(O)c3Oc3cc4c(c(O)c3O)-c3c(ccc(O)c3O)C(=O)OCC(O)C(OC4=O)C1OC(=O)c1cc(O)c(O)c(O)c1)C2OC(=O)c1cc(O)c(O)c(O)c1 | 50.8 µg/mL
COc1c(Cl)cc(C(=CCC[C@@H](C)[C@H]2CCC3C4C(C[C@H](O)[C@@]32C)[C@@]2(C)CC[C@@H](O)C[C@H]2C[C@H]4O)c2cc(Cl)c(OC)c(C(=O)O)c2)cc1C(=O)O | >54.1 µM
CC(C)(C)OC(=O)N(CCCCCCN(Cc1ccccc1)C(=O)OC(C)(C)C)CCCCCC(=O)N(CC(=O)CN(Cc1ccccc1)C(=O)CCCCCN(CCCCCCN(Cc1ccccc1)C(=O)OC(C)(C)C)C(=O)OC(C)(C)C)Cc1ccccc1 | 50 µM
CC(C)c1c(Cc2ccccc2)n(CCCO)c(=O)[nH]c1=O | >100 µM
CCCCOC(=O)c1cc(O)c(O)c(O)c1 | 14.4 µg/mL
O=C(O)/C(=C\c1ccc(Br)cc1)n1nnc2ccccc21 | 0.4 µM
C=C(C)[C@@H]1CC[C@]2(C(=O)N[C@@H](CC(C)C)C(=O)O)CC[C@]3(C)[C@H](CC[C@@H]4[C@@]5(C)CC[C@H](OC(=O)CC(C)(C)C(=O)O)C(C)(C)[C@@H]5CC[C@]43C)[C@@H]12 | 12.2 µM
CC(C)c1c(Cc2ccccc2)n(CCCC(N)=O)c(=O)[nH]c1=O | >100 µM
Cc1cc(=O)c2c(O)c3c(O)cc(O)c4c5c(O)cc(O)c6c(O)c7c(=O)cc(C)c8c1c2c(c34)c(c65)c78 | >1 µM
C=C1CN(S(=O)(=O)c2ccc(C)cc2)CCCN(CC(C)C)CCCN(S(=O)(=O)c2ccc(C)cc2)C1 | >75 µM
N#C/C(=C\c1cccc(F)c1)n1nnc2ccccc21 | 3.6 µM
CC(C)C[C@H](NC(=O)[C@]12CCC(C)(C)C=C1[C@H]1CC[C@@H]3[C@@]4(C)CC[C@H](OC(=O)CC(C)(C)C(=O)O)C(C)(C)[C@@H]4CC[C@@]3(C)[C@]1(C)CC2)C(=O)O | 21 µM
CC(C)c1c(Cc2ccccc2)n(CCCCC(N)=O)c(=O)[nH]c1=O | >100 µM
CCN1C[C@H](C)N2C(=C(O)C3C(=O)N4Cc5ccc(F)cc5OCCCS(=O)(=O)N(C)C(=N4)C32)C1=O | 11.7 µM
CNC(=O)c1c(O)c2ncc(Cc3ccc(F)cc3)c3c2n(c1=O)C[C@](C)(c1nnc(C)o1)O3 | 42 µM

A second listing of 3 rows from above:

structure,value
C=C1CN(S(=O)(=O)c2ccc(C)cc2)CCCN(CCC)CCCN(S(=O)(=O)c2ccc(C)cc2)C1,36.4 µM
CCN1C[C@H](C)N2C(=C(O)C3C(=O)N4Cc5ccc(F)cc5C(=O)NCCCCCCN(C)C(=N4)C32)C1=O,0.8 µM
CC(C)C[C@H](NC(=O)[C@]12CCC(C)(C)C=C1[C@H]1CC[C@@H]3[C@@]4(C)CC[C@H](OC(=O)CC(C)(C)C(=O)O)C(C)(C)[C@@H]4CC[C@@]3(C)[C@]1(C)CC2)C(=O)O,21 µM